A mixed list of measured activities; the numbers were collected in NIAID ChemDB.

Common to all: growth or infection tests; organism: Mycobacterium tuberculosis

Inhibition is in % at the dose shown (toxicity tests: loss of growth or viability).

SMILES	setting	method	cell line	tested at	mutations	strain	read-out	value
O=c1ccn(-c2ccc([N+](=O)[O-])cc2[N+](=O)[O-])c(=O)[nH]1				6.25 µg/mL			inhibition	<90%
O=C1CSC2(CCCCC2)N1Cc1ccccc1		resazurin				H37Ra	EC50	>25 µg/mL
CCCCC(=O)NNC(=O)c1ccncc1						H37Rv	MIC	400 µg/mL
CN1CCN(CNC(=O)c2cnccn2)CC1						ATCC 35828	MIC	300 µg/mL
CCOC(=O)c1[nH]cc(C)c1-c1ccc2c(-c3ccccc3)nc3ccccc3n12						H37Rv	EC50	<12.5 µg/mL
CCCCCCCCCCCCN1C(=O)CSC12CCCCC2		resazurin		25 µg/mL		H37Ra	inhibition	5%
O=C(/C=C/c1ccccc1)c1cc(Cl)ccc1O							EC50	<12.5 µg/mL
O=c1c2ccccc2nnn1Cc1ccco1		BACTEC				H37Rv	MIC bound	>12.5 µg/mL
CCCN(CCC)CNC(=O)c1cnc(C)cn1						PZA-resistant	MIC	100 µg/mL
CCCC/C(C)=N/NC(=S)SC						EMB-R	MIC	6.4 µg/mL
O=[N+]([O-])c1cn2c(n1)OC[C@@H](OCc1ccc(OCc3ccccc3)cc1)C2						H37Rv-14A1-3547 (PA-824-resistant)	MIC	0.2 µM
C=C(NC(=O)c1csc(-c2nc3c(cc2O)-c2nc(cs2)C(=O)N[C@@H]([C@@H](C)O)C(=O)N/C(=C(\C)OC)c2nc(cs2)C(=O)N[C@@H]2c4nc(cs4)C(=O)N[C@@H](COC(=O)c4c5c6c(cccc6n4O)COC(=O)[C@@H](O[C@H]4C[C@](C)(O)[C@H](N(C)C)[C@H](C)O4)[C@H]2OC5)c2nc-3cs2)n1)C(N)=O		broth dilution				Clinical isolate 13923	MIC	≤25 µM
CCCCCCCCN1C(=O)C(CC(=O)O)SC12CCCCC2		resazurin				H37Ra	EC50	>25 µg/mL
CCOC(=O)c1c(NC(=O)c2c(F)c(F)c(F)c(F)c2F)sc2c1CCOC2		turbidity			katG Y155 truncation mutant	H37Rv	EC50	0.18 µM
O=C1CC(c2ccccc2)Oc2ccc(Cl)cc21				12.5 µg/mL		H37Rv	inhibition	30%
Cc1cc(C)c(B2OB(c3c(C)cc(C)cc3C)O2)c(C)c1		BACTEC				H37Rv	MIC bound	>12.5 µg/mL
N[C@@H]1CN(c2c(F)cc3c(=O)c(C(=O)O)cn([C@@H]4C[C@@H]4F)c3c2Cl)CC12CC2		resazurin			MDR (rifampicin- isoniazid-resistant)	Clinical strain	MIC50	0.0625 µg/mL
CC(=O)Nc1ccc(/C=N/NC(=S)Nc2cccc3cccnc23)cc1		BACTEC				H37Rv	MIC	≥12.5 µg/mL
Cc1nc(N)c2ncn([C@@H]3O[C@H](CO)[C@@H](O)[C@H]3O)c2n1						H37Rv	MBC	>64 µg/mL
CCCN(CCC)CNC(=O)c1cnccn1						PZA-resistant	MIC	100 µg/mL
Nc1nc(N)c(N=Nc2c(Br)cc(S(N)(=O)=O)cc2Br)c(=O)[nH]1		BACTEC		12.5 µg/mL		H37Rv	inhibition	11%
CC(C)(OC(=O)CSc1nc(N)c2c3c(sc2n1)CC(C(C)(C)C)CC3)c1ccccc1		MTT / visual reading				H37Rv	MIC	25 µg/mL
CCCCCCCCCCCCN1C(=O)C(CC(=O)O)SC12CCN(C(=O)C(N)CCCCN)CC2		resazurin				H37Ra	EC50	<25 µg/mL
NNC(=O)c1ccncc1		broth dilution				H37Rv	MIC	0.73 µM
CCOC(=O)C1CSC(c2c(CO)cnc(C)c2O)N1		BACTEC				H37Rv	MIC bound	>12.5 µg/mL
COc1ccc(C(=O)/C=C/c2cccnc2)cc1						H37Rv	EC50	>12.5 µg/mL
CCOC(=O)c1c[nH]c(C(=O)OCC)c1-c1cc2c(-c3ccccc3)nc3ccccc3n2c1						H37Rv	EC50	<12.5 µg/mL
Cc1c2cc[n+](CCN3CCCCC3)cc2c(C)c2c1[nH]c1ccc(O)cc12		resazurin	VERO			H37Rv	MIC	1.56 µg/mL
CCCCCCCCCCCCN1C(=O)C(CC(=O)O)SC12CCN(C(=O)C(N)Cc1ccccc1)CC2		resazurin		25 µg/mL		H37Ra	inhibition	97%
Cc1c2c(cc3c1[nH]c1ccccc13)C(c1ccc(F)cc1)=NCC2		resazurin				H37Rv	MIC	6.25 µg/mL
CCN1CCc2c(sc(NC(=O)c3c(F)c(F)c(F)c(F)c3F)c2C(N)=O)C1		turbidity		11 µM		ATCC 35838 RIF-R2 rifampicin-resistant	inhibition	90%
Cn1c(=O)ccn(-c2ccc([N+](=O)[O-])cc2[N+](=O)[O-])c1=O				6.25 µg/mL			inhibition	<90%
CO[C@H]1/C=C/O[C@@]2(C)Oc3c(C)c(O)c4c(=O)c(c5oc6cc(N7CCN(CC(C)C)CC7)cc(=O)c6nc5c4c3=C2O)NC(=O)/C(C)=C\C=C\[C@H](C)[C@H](O)[C@@H](C)[C@@H](O)[C@@H](C)[C@H](OC(C)=O)[C@@H]1C							MIC90	0.015 µg/mL
Cc1c(CN2CCSCC2)cc(-c2ccccc2)n1-c1ccccc1F							MIC	8 µg/mL
O=C1C[C@@H](c2ccc(O)cc2)Oc2c1c(O)cc(O[C@@H]1O[C@H](CO)[C@@H](O)[C@H](O)[C@H]1O)c2[C@H]1C(=O)c2c(O)cc(O)cc2O[C@@H]1c1ccc(O)cc1				12.5 µg/mL		H37Rv	inhibition	0%
N#Cc1c(NC(=O)c2c(F)c(F)c(F)c(F)c2F)sc2c1CCOC2		turbidity			gyrA mutant (D94N)	H37Rv	EC50	4.9 µM
O=C1CCCC(=O)NNC(=O)NCCCCCCNC(=O)NN1		BACTEC				H37Rv	MIC bound	>12.5 µg/mL
O=c1ccn(-c2ccc([N+](=O)[O-])cc2)c(=O)[nH]1				6.25 µg/mL			inhibition	<90%
Cc1c(CN2CCSCC2)cc(-c2cccc3ccccc23)n1-c1ccccc1							MIC	>16 µg/mL
CCOC(=O)c1c(NC(=O)c2c(F)c(F)c(F)c(F)c2F)sc2c1CCNC2=O		turbidity			katG Y155 truncation mutant	H37Rv	EC50	1.3 µM
CCC(=O)NNC(=O)c1ccncc1						H37Rv	MIC	400 µg/mL
CCN(CC)CNC(=O)c1cnccn1						ATCC35801	MIC	2 µg/mL
COc1ccc(C2CC(=O)c3c(OC)cc(OC)cc3O2)cc1				12.5 µg/mL			inhibition	12%
CO/C(C)=C1/NC(=O)[C@H]([C@@H](C)O)NC(=O)c2csc(n2)-c2cc(O)c(-c3nc(C(=O)NCc4cnn(C)c4)cs3)nc2-c2csc(n2)[C@@H]2COC(=O)c3c4c5c(cccc5n3O)COC(=O)[C@@H](O[C@H]3C[C@](C)(O)[C@H](N(C)C)[C@H](C)O3)[C@@H](OC4)[C@H](NC(=O)c3csc1n3)c1nc(cs1)C(=O)N2		broth dilution				Clinical Isolate 913	MIC	≤10 µM
CCOC(=O)c1ccc(N2CCN(CCn3c(-c4cncc(-c5ccc(F)cc5)c4)nc4cc(C(=O)OCC)ccc43)CC2)c(N)c1		resazurin			Isoniazid-resistant	INHR-MTB	MIC	6.12 µM
C=CCCn1nc(-c2ccccc2)oc1=O		BACTEC				H37Rv	MIC bound	>12.5 µg/mL
CCCCN(CCCC)CNC(=O)c1cnc(C)cn1						PZA-susceptible	MIC	100 µg/mL
CCC1Cn2cc([N+](=O)[O-])nc2O1						H37Rv-T3-Fgd1 (PA-824-resistant)	MIC	0.8 µM
O=C(NCN1CCOCC1)c1cnccn1						ATCC 35822	MIC	33 µg/mL
CC(C)(C)C1CCc2c(sc3nc(SCc4nccs4)nc(N)c23)C1		MTT / visual reading				H37Rv	MIC	0.39 µg/mL
CN(C)C(=S)SC1OC(CO)C(OC2OC(CO)C(O)C(O)C2O)C(O)C1O		BACTEC				H37Rv	MIC	16 µg/mL
CCN1CCc2c(sc(NC(=O)c3c(F)c(F)c(F)c(F)c3F)c2C(=O)NC)C1		turbidity			gyrA mutant (D94N)	H37Rv	MIC	3.8 µM
NNC(=O)c1ccncc1		broth dilution			Rifampicin- and isoniazid-resistant	Clinical isolate 1868	MIC	<10 µM
CC(=O)N1C(=O)C2(NCC(C)N2)c2ccccc21		BACTEC				H37Rv	MIC	≥12.8 µg/mL
CCNC(=O)c1c(NC(=O)c2c(F)c(F)c(F)c(F)c2F)sc2c1CCN(CC)C2		turbidity				ATCC35838	EC90	9.4 µM
CCOC(=O)c1c2c(n3ccccc13)C(=O)c1ccccc1C2=O		resazurin		6.25 µg/mL		H37Rv	inhibition	100%
CC(C)(C)C1CCc2c(sc3nc(SCc4ncco4)nc(N)c23)C1		MTT / visual reading				H37Rv	MIC	25 µg/mL
COc1cc2c(cc1OC)[C@@H]1C(=O)c3ccc4c(c3O[C@@H]1CO2)C[C@H](C(C)C)O4		BACTEC				H37Rv	MIC	≥12.5 µg/mL
Cc1c(CN2CCSCC2)cc(-c2ccccc2F)n1-c1ccccc1							MIC	4 µg/mL
Cc1ccc(NC(=S)NC2CCCCC2)cc1Cl		BACTEC				H37Rv	MIC bound	<6.25 µg/mL
CN(C)C(=O)CSc1nc(N)c2c3c(sc2n1)CC(C(C)(C)C)CC3		MTT / visual reading				H37Rv	MIC	>200 µg/mL
CCOC(=O)c1ccc(N2CCN(CCn3c(-c4ccccc4)nc4cc(C(=O)OCC)ccc43)CC2)c(N)c1		resazurin			Isoniazid-resistant	INHR-MTB	MIC	64.78 µM
CCCCCCCCN1C(=O)CS(=O)C12CCCCC2		resazurin				H37Ra	EC50	>25 µg/mL
CN(CNC(=O)c1cnccn1)Cc1ccccc1						ATCC 35828	MIC	100 µg/mL
Cc1ccc(Nc2ccc(N=Nc3ccc(N=Nc4cccc(S(=O)(=O)O)c4)c4ccccc34)c3cccc(S(=O)(=O)O)c23)cc1		BACTEC				H37Rv	MIC bound	>128 µg/mL
COc1cc(O)c(C(=O)/C=C/c2cc(OC)c(OC)c(OC)c2)c(O)c1							EC50	>12.5 µg/mL
CCCCCCCCN1C(=S)CSC12CCCCC2		resazurin		25 µg/mL		H37Ra	inhibition	7%
COc1ccccc1NC(=S)Nc1cccc(C)n1		BACTEC				H37Rv	MIC bound	>6.25 µg/mL
Cc1c(CN2CCN(C)CC2)cc(-c2cccc3ccccc23)n1-c1ccccc1							MIC	>16 µg/mL
CC(C)(C)C1CCc2c(sc3nc(SCc4ccccc4)nc(N)c23)C1		MTT / visual reading				H37Rv	MIC	>200 µg/mL
Cc1cn(-c2ccc([N+](=O)[O-])cc2)c(=O)[nH]c1=O				6.25 µg/mL			inhibition	<90%
COc1ccc(/C=C/C(=O)c2ccc(Br)cc2O)cc1							EC50	>12.5 µg/mL
CCN1CCc2c(sc(NC(=O)c3c(F)c(F)c(F)c(F)c3F)c2C#N)C1		turbidity			katG Y155 truncation mutant	H37Rv	EC90	21 µM
C/C(=N/Nc1ccc([N+](=O)[O-])cc1[N+](=O)[O-])c1ccc2ccccc2n1		resazurin		6.25 µg/mL		H37Rv	inhibition	5%
CCCCCCCCCCCCN1C(=O)C(CC(=O)O)SC12CCCCCC2		resazurin				H37Ra	EC50	<25 µg/mL
O=c1[nH]c(=O)n(-c2ccc([N+](=O)[O-])cc2)cc1Cl				6.25 µg/mL			inhibition	<90%
CO[C@H]1/C=C/O[C@@]2(C)Oc3c(C)c(O)c4c(O)c(c(/C=N/N5CCN(C)CC5)c(O)c4c3C2=O)NC(=O)/C(C)=C\C=C\[C@H](C)[C@H](O)[C@@H](C)[C@@H](O)[C@@H](C)[C@H](OC(C)=O)[C@@H]1C		broth dilution				H37Rv	MIC	≤0.1 µM
CCN=c1cc2n(-c3ccc(C(F)(F)F)cc3)c3ccccc3nc-2cc1Nc1ccc(C(F)(F)F)cc1	multidrug-resistant					29	MIC	≤0.06 µg/mL
CO[C@H]1/C=C/O[C@@]2(C)Oc3c(C)c(OC(C)=O)c4c(c3C2=O)C(=O)C=C(NC(=O)/C(C)=C\C=C\[C@H](C)[C@H](OC(C)=O)[C@@H](C)[C@@H](O)[C@@H](C)[C@H](OC(C)=O)[C@@H]1C)C4=O			VERO			H37Rv	MIC	3.13 µg/mL
COc1ccc(/C=C/C(=O)c2c(O)cc(OC)cc2OC)cc1						H37Rv	EC50	>12.5 µg/mL
CCOC(=O)c1ccc(N2CCN(CCn3c(-c4ccc(OC(F)(F)F)cc4)nc4cc(C(=O)OCC)ccc43)CC2)c(N)c1		resazurin			Isoniazid-resistant	INHR-MTB	MIC	16.25 µM
Cc1c[nH]c(C(=O)O)c1-c1cc2c(-c3ccccc3)nc3ccccc3n2c1				12.5 µg/mL		H37Rv	inhibition	45%
CCOP(=O)(OCC)Oc1cnn(C)c(=O)c1SCC		BACTEC				H37Rv	MIC bound	>12.5 µg/mL
O=c1[nH]c(=O)n(-c2ccc([N+](=O)[O-])cc2[N+](=O)[O-])cc1Br				6.25 µg/mL			inhibition	<90%
CC(=O)NNC(=O)c1ccncc1						H37Rv	MIC	400 µg/mL

10 of the rows above, restated:

SMILES	setting	method	cell line	tested at	mutations	strain	read-out	value
CC(C)(C)C1CCc2c(sc3nc(SCc4nccs4)nc(N)c23)C1		MTT / visual reading				H37Rv	MIC	0.39 µg/mL
O=C(/C=C/c1ccccc1)c1cc(Cl)ccc1O							EC50	<12.5 µg/mL
Cn1c(=O)ccn(-c2ccc([N+](=O)[O-])cc2[N+](=O)[O-])c1=O				6.25 µg/mL			inhibition	<90%
O=C1CCCC(=O)NNC(=O)NCCCCCCNC(=O)NN1		BACTEC				H37Rv	MIC bound	>12.5 µg/mL
CCOC(=O)c1ccc(N2CCN(CCn3c(-c4ccc(OC(F)(F)F)cc4)nc4cc(C(=O)OCC)ccc43)CC2)c(N)c1		resazurin			Isoniazid-resistant	INHR-MTB	MIC	16.25 µM
O=c1ccn(-c2ccc([N+](=O)[O-])cc2[N+](=O)[O-])c(=O)[nH]1				6.25 µg/mL			inhibition	<90%
CC(C)(C)C1CCc2c(sc3nc(SCc4ncco4)nc(N)c23)C1		MTT / visual reading				H37Rv	MIC	25 µg/mL
Cc1c(CN2CCN(C)CC2)cc(-c2cccc3ccccc23)n1-c1ccccc1							MIC	>16 µg/mL
CC(=O)Nc1ccc(/C=N/NC(=S)Nc2cccc3cccnc23)cc1		BACTEC				H37Rv	MIC	≥12.5 µg/mL
CCOC(=O)c1c[nH]c(C(=O)OCC)c1-c1cc2c(-c3ccccc3)nc3ccccc3n2c1						H37Rv	EC50	<12.5 µg/mL

An empty or dashed field is not shown. MIC bound comes from a single tested concentration. MIC50, MIC90 and the like: level of inhibition, or share of isolates inhibited. ECn: concentration that inhibits the pathogen or its effect by n%. Neighbouring rows are from separate reports.